Measured values from several laboratories, pooled; numbers as filed in NIAID ChemDB.

Shared fields: whole-cell or culture tests; organism: HIV-1; cells: CEM-SS; endpoint: EC50

Lines come from different laboratories, so protocols vary. Blank or dashed fields: not listed here. ECn: concentration that inhibits the pathogen or its effect by n%.

smiles	strain or isolate	read by	value
COc1c(C(=O)/C=C(/C)Nc2ccccc2)c(O)c(S(=O)(=O)Oc2ccc(F)cc2)c2occc12	RF	cytopathic effect / MTS	0.000063 µM
Cc1nonc1CNC(=O)C1=CN2C[C@H]3OC[C@H](C)N3C(=O)C2C(=O)C1=O	IIIB	XTT	0.036 µM
COc1c(-c2cc(C)[nH]n2)c(O)c(S(=O)(=O)Oc2ccc(F)cc2)c2occc12	RF	cytopathic effect / MTS	0.000047 µM
COc1cc2ccccc2cc1/C=N/NC(=O)c1cc(O)c(O)c(O)c1	IIIB	cytopathic effect / absorbance	>10 µM
C[C@@H]1CO[C@@]23CCC[C@@H]2N2C=C(C(=O)NCc4c(F)cncc4F)C(=O)C(=O)C2C(=O)N13	IIIB	XTT	0.0736 µM
O=C1Cc2c(cccc2-c2ccc(F)cc2F)C(=O)N1O	IIIB	cytopathic effect / absorbance	>10 µM
C[C@H]1CO[C@@H]2CN3C=C(C(=O)NCc4nc5ccc(F)cc5[nH]4)C(=O)C(=O)C3C(=O)N12	IIIB	XTT	0.0948 µM
O=C1Cc2cc(-c3ccoc3)ccc2C(=O)N1O	IIIB	cytopathic effect / absorbance	>10 µM
NCCS	-	p24	>100 µM
Cc1nn(C)c(C)c1CNC(=O)C1=CN2C[C@H]3OC[C@H](C)N3C(=O)C2C(=O)C1=O	IIIB	XTT	0.0401 µM
O=C1Cc2cc(-c3ccc4c(c3)OCO4)ccc2C(=O)N1O	IIIB	cytopathic effect / absorbance	>10 µM
COc1c(-c2cc(C)on2)c(O)c(S(=O)(=O)Oc2ccc(F)cc2)c2occc12	RF	cytopathic effect / MTS	0.000051 µM
O=C1Cc2cc(-c3cccs3)ccc2C(=O)N1O	IIIB	cytopathic effect / absorbance	>10 µM
COc1c2ccoc2c(S(=O)(=O)OC2CCCC2)c2oc(C)cc(=O)c12	RF	cytopathic effect / MTS	0.000087 µM
Cc1cc2c(cc1CNC(=O)C1=CN3C[C@H]4OC[C@H](C)N4C(=O)C3C(=O)C1=O)OCCO2	IIIB	XTT	>0.01 µM
COc1c(C(=O)/C=C(/C)Nc2ccc(F)cc2)c(O)c(S(=O)(=O)Oc2ccc(F)cc2)c2occc12	RF	cytopathic effect / MTS	0.000059 µM
CCN(CC)C(=S)SSC(=S)N(CC)CC	-	-	>100 µM
Cc1nccc(CNC(=O)C2=CN3C[C@H]4OC[C@H](C)N4C(=O)C3C(=O)C2=O)n1	IIIB	XTT	0.0461 µM
COc1c(C(=O)/C=C(/C)Nc2ccc([N+](=O)[O-])cc2)c(O)c(S(=O)(=O)Oc2ccc(F)cc2)c2occc12	RF	cytopathic effect / MTS	0.000062 µM

A second listing of 2 rows from above:

smiles | strain or isolate | read by | value
COc1c(-c2cc(C)on2)c(O)c(S(=O)(=O)Oc2ccc(F)cc2)c2occc12 | RF | cytopathic effect / MTS | 0.000051 µM
CCN(CC)C(=S)SSC(=S)N(CC)CC | - | - | >100 µM